The source of these data is patent publication US4933332A, “11-desoxy-17-α-hydroxycorticosterone derivatives” (priority 1988, dated 1990).

In this series the test system is mice. Put plainly: Toxicological study, single administration.

As a reminder, the LD50 is the dose at which mortality reaches 50%. A higher LD50 goes with a less toxic substance. As to `O=C(O)Cc1ccc(N(CCCl)CCCl)cc1`, the 50% lethal dose (LD50) came to 24 mg/kg and the MTD was determined as 15 mg/kg.
